According to publication PMC10415612:

Key:
[1] = biological target: T1, HspRΔC9 del118-126 (Mycobacterium tuberculosis H37Rv) (UniProt O06302); assay: binding assay; conditions: 20S CPOG; recombinant protein; residues 2-117; protein details: expression tag removed (TEV)
T1 sequence (looked up): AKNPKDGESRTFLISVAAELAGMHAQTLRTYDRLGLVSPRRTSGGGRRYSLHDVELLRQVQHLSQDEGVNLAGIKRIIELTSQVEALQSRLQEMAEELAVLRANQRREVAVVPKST

[2] = biological target: T2, HspR WT (Mycobacterium tuberculosis H37Rv) (UniProt O06302); assay: binding assay; conditions: recombinant protein, residues 2-126, protein details: expression tag removed (TEV)
T2 sequence (looked up): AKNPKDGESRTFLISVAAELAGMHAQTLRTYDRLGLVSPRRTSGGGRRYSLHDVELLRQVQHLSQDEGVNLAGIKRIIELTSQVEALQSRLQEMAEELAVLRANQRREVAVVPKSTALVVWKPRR

Measured: binding result

CCGTCGAGGCAAGCTTGAGCGGGGTGCACTCATCATAGTGCAGGAAAGAA (double strand) [HAIR motif operator DNA]
binds: [1] | [2]; Bpa-Fl 200 nM, HspR:DNA 1:1, 20 C | [2]

Construct, isoform or probe ends are uncertain for at least one entry. At least one verdict was read from the data and is not stated in words by the source. Protein sequences can lack the tags named with them.
